Consider 1 compound from patent US20090215699A1, “Pharmaceutically Active Antiviral Peptides” (priority 2005, published 2009).

Data set [1] relates to macrophage-trophic HIV-1Ba-L strain. Format: cell-based. To be noted: macrophage-trophic 1Ba-L strain. As for the experimental part: FIG. 1: Inhibition by Peptide Seq ID NO: 28 of HIV replication in a concentration-dependent manner. PM1 cells were de novo infected with macrophage-trophic HIV-1Ba-L strain in the presence of Peptide Seq ID NO: 28. HIV replication was monitored by p24 assay as described below. Peptide Seq ID NO: 28 inhibits HIV replication in a concentration-dependent manner with IC50 (half-maximal inhibitory constant) of 10 μM.
HIV replication was measured either by p24 HIV Antigen Capture Assay Kit (ELISA; HIVAG-1 Monoclonal kit B1A011; Abbott) following the manufacturer's recommendation, or by using the Quantiplex HIV-1 RNA 3.0 Assay (bDNA) system (Chiron Diagnostics). The latter assay is a signal amplification nucleic acid probe assay (employing a sandwich nucleic acid hybridization procedure) for direct quantitation of HIV RNA in human plasma. There, in brief, HIV-1 is first concentrated from plasma by centrifugation. […] Light emission is directly proportional to the amount of HIV-1 RNA present in each sample, and results are recorded as relative light units by an appropriate analyzer. […]
(§1) Culture medium was changed and cells were split at days 3 and 7 of the experiments. Viability of the cells (Trypan-blue staining), cell counts and p24 antigen levels were determined at days 3, 6, 9, 12 and 15 of the experiments. […]

The next data set concerns PM1 cells. The data set is described as follows: Cell viability (Trypan-blue staining) of PM1 cells infected with HIV-1 FE9. It is filed as cell-based, human. To be noted: day 15, HIV-1 FE9 infected PM1 cells. How it is done:
FIG. 8: Inhibition by Peptide Seq ID NO: 28 of replication of the omni-resistant HIV stain FE9. PM1 cells were incubated with HIV-1 FE9 for 2 hours and subsequently HIV replication was monitored by p24 assay as described below at day d6, d9, d12 and d15. In control (DMSO) treated cells HIV-1 FE9 replication could be detected at day 12 postinfection. Cell viability as monitored by Trypan-blue staining and photometric analysis was reduced in control treated cells at day 12 reflecting the cell death by HIV.
PM1 cells were infected with an “omni-drug-resistant HIV-1” (recombinant HIV-1 NL4-3 in which the Protease gene and the 5′ part of the Reverse Transcriptase gene was replaced by the corresponding sequences from a omni-drug-resistant clinical isolate, resistant to all currently available anti-HIV drugs. Infected cells were incubated with peptide SEQ ID NO. 28 at a concentration of 8.1 μM, 12.2 μM, 16.3 μM or DMSO (control). The culture medium was changed every third day. Cell viability (Trypan-blue staining), cell counts and p24 levels were determined at day 6 and 12. At day 12 of infection, the virus replicated vigorously in untreated cultures. Numbers describe percent inhibition of HIV-1 replication as compared to control experiments. In addition, various different “types” of multiple anti-retroviral drug resistant HIV-1 strains were also tested.

The nature of data set [2]: Viability of the infected cells (Trypan-blue staining) in the HIV-1 inhibition experiment. The note with it: human; days 3, 6, 9, 12 and 15, Trypan-blue staining; read-out: Viability of the cells (living cells). It is filed as cell-based.
Text: Jurkat cells (species: human T-cell leukemia; special characteristics: cells are permissive for growth of T-cell trophic HIV strains; source: ATCC Cat. No. TIB 152) or PM1 cells (species: clonal derivative of human HUT 78 cells; special characteristics: cells are permissive for growth of macrophage-trophic and T-cell trophic HIV strains; source: Dr. Marvin Reitz, courtesy of the NIH AIDS Research and Reference Reagent Program Cat. No. 3038) were stimulated with Phytohemagglutinin (PHA-P, Product No. L9132 from Sigma) in a concentration of 2 μg/ml (1.5×10^6 cells/ml) and Hexadimethrine Bromide (Polybrene, Product No. H9268 from Sigma) in a concentration of 2 μg/ml (1.5×10^6 cells/ml) in RPMI 1640 medium containing 10% fetal calf serum (FCS, Pansystems GmbH) and antibiotics for 3 days.
For HIV-1 infection, 5×10^7 cells were resuspended in 500 μl culture medium without test drugs and incubated in a 50 ml blue-cap-tube at 37° C. for 5 hrs with HIV-1 high titer viral stocks. […]
as §1

`CCCC[C@H](NC(=O)[C@H](CCCC)NC(=O)[C@H](CCCC)NC(=O)[C@H](CCCNC(=N)N)NC(=O)[C@H](CCCC)NC(=O)[C@H](CCCC)NC(=O)[C@H](CCCC)NC(=O)[C@@H](N)CCCNC(=N)N)C(=O)NCC(=O)N[C@@H](Cc1ccc(O)cc1)C(=O)O` [Peptide Seq ID NO: 28, Arg nL nL nL Arg nL nL nL Gly Tyr] had an IC50 in data set [1] of 10 µM. The Cell viability entry in the data set on PM1 cells was “al cells were viable”. In data set [2], the viability is 85 to 90%.

In general, IC50 refers to the concentration that inhibits the measured activity by half. Read a low IC50 as greater potency in that assay. By viability is commonly meant the share of living cells, or the viability signal relative to a control.
